Pooled drug test results. Numbers come from NIAID ChemDB, via PubChem.

Common to all: growth or infection tests; agent: HIV-1; endpoint: EC90

ECn: concentration that inhibits the pathogen or its effect by n%.

| structure | strain | cell line | mutations | result |
|---|---|---|---|---|
| CC(C)(C)OC(=O)N1[C@H](CO)CC(F)(F)[C@H]1n1cc(F)c(=O)[nH]c1=O | LAI | PBMC |  | 75.6 µM |
| O=C1Nc2ccc(F)c(F)c2C(C#Cc2cccs2)(C(F)(F)F)O1 |  |  | RT-K103N | 0.2797 µM |
| CC(C)(C)OC(=O)N1[C@H](CO)CC(F)(F)[C@H]1n1cnc2c(Cl)ncnc21 | LAI | PBMC |  | >100 µM |
| CN(C)c1ccc(/C=N/NC(=O)CN2c3c(-c4ccccc4)n[nH]c3-c3ccccc3S2(=O)=O)cc1 |  | PBMC |  | >100 µM |
| Nc1n[nH]c2ccc(CN3C(=O)N(CC4CCC4)[C@H](Cc4ccccc4)[C@H](O)[C@@H](O)[C@H]3Cc3ccccc3)cc12 | RF | MT-2 |  | 0.018 µM |
| CCCCC#CC1(C(F)(F)F)OC(=O)Nc2ccc([N+](=O)[O-])cc21 | RF | MT-2 |  | 0.00457 µM |
| O=C(CN1c2c(-c3ccccc3)n[nH]c2-c2ccccc2S1(=O)=O)N/N=C/c1c(Cl)cccc1Cl |  | PBMC |  | 52.5 µM |
| O=C1Nc2ccc(Cl)cc2C(C#Cc2ccoc2)(C(F)(F)F)O1 |  |  | RT-K103N | 0.1522 µM |
| CCc1cn([C@H]2O[C@H](CO)[C@@H](O)[C@@]2(C)F)c2ncnc(N)c12 |  | PBMC |  | >100 µM |
| O=C1Nc2ccc(Cl)cc2C(C#Cc2cccnc2)(C(F)(F)F)O1 |  |  | RT-K103N | 1.11 µM |
| COc1ccc(/C=N/NC(=O)CN2c3c(-c4ccccc4)n[nH]c3-c3ccccc3S2(=O)=O)cc1OC |  | PBMC |  | >100 µM |
| O=C1Nc2ccc(Cl)cc2[C@@](/C=C/C2CC2)(C(F)(F)F)N1 |  |  | RT-Y188C | <0.012 µM |
| C[C@@]1(F)[C@H](O)[C@@H](CO)O[C@@H]1n1cc(I)c2c(N)nc(N)nc21 |  | PBMC |  | >100 µM |
| O=S1(=O)Nc2ccc(Cl)cc2C(C#CC2CC2)(C2CC2)N1 | RF | MT-2 |  | 0.279 µM |
| O=C1Nc2ccc(F)c(F)c2[C@@](/C=C/C2CC2)(C(F)(F)F)N1 |  |  |  | 0.0019 µM |
| NNC(=O)CN1c2c(-c3ccccc3)n[nH]c2-c2ccccc2S1(=O)=O |  | PBMC |  | >100 µM |
| CC(C)(C)OC(=O)N1[C@H](CO)CC(F)(F)[C@H]1n1cnc2c(N)ncnc21 | LAI | PBMC |  | >100 µM |
| O=C1Nc2ccc(Cl)cc2C(C#Cc2ccccn2)(C(F)(F)F)O1 |  |  | RT-K103N | 0.064 µM |
| CC(C)(C)OC(=O)N1[C@H](CO)CC(F)(F)[C@H]1n1cnc2ncnc(N)c21 | LAI | PBMC |  | >100 µM |
| Nc1n[nH]c2ccc(CN3C(=O)N(CC4CC4)[C@H](Cc4ccccc4)[C@H](O)[C@@H](O)[C@H]3Cc3ccccc3)cc12 | RF | MT-2 |  | 0.114 µM |
| O=C(CN1c2c(-c3ccccc3)n[nH]c2-c2ccccc2S1(=O)=O)N/N=C/c1cccc([N+](=O)[O-])c1 |  | PBMC |  | 30.2 µM |
| O=C1Nc2ccc(Cl)cc2C(OCCC2CC2)(C(F)(F)F)O1 |  |  | RT-K103N | 0.286 µM |
| CC(C)C#CC1(C2CC2)NS(=O)(=O)Nc2ccc(Cl)cc21 | RF | MT-2 |  | 0.182 µM |
| CCCC#CC1(C(F)(F)F)OC(=O)Nc2cccc(F)c21 | RF | MT-2 |  | 0.00418 µM |
| CCC#CC1(C2CC2)NS(=O)(=O)Nc2ccc(Cl)cc21 | RF | MT-2 |  | 0.611 µM |
| O=C1Nc2ccc(F)cc2C(C#Cc2cccs2)(C(F)(F)F)O1 |  |  | RT-K103N | 0.369 µM |
| COc1ncnc2c1ccn2[C@@H]1O[C@H](CO)[C@@H](O)[C@@]1(C)F |  | PBMC |  | 85.6 µM |
| O=C(CN1c2c(-c3ccccc3)n[nH]c2-c2ccccc2S1(=O)=O)N/N=C/c1ccc(Cl)cc1Cl |  | PBMC |  | 95.4 µM |
| O=C1Nc2ccc(Cl)cc2C(OCC2CC2)(C(F)(F)F)O1 |  |  | RT-K103N | 0.989 µM |
| CC(C)C#CC1(C(C)C)NS(=O)(=O)Nc2ccc(Cl)cc21 | RF | MT-2 |  | 0.643 µM |
| O=C1Nc2ccc(F)c(F)c2C(C#Cc2ccco2)(C(F)(F)F)O1 |  |  | RT-K103N | 0.0593 µM |
| C[C@@]1(F)[C@H](O)[C@@H](CO)O[C@@H]1n1ccc2c(N)nc(N)nc21 |  | PBMC |  | >100 µM |
| O=C(CN1c2c(-c3ccccc3)n[nH]c2-c2ccccc2S1(=O)=O)N/N=C/c1ccc(Cl)cc1 |  | PBMC |  | 29.7 µM |

For reference, 3 entries again:

structure,strain,cell line,mutations,result
Nc1n[nH]c2ccc(CN3C(=O)N(CC4CC4)[C@H](Cc4ccccc4)[C@H](O)[C@@H](O)[C@H]3Cc3ccccc3)cc12,RF,MT-2,,0.114 µM
O=C(CN1c2c(-c3ccccc3)n[nH]c2-c2ccccc2S1(=O)=O)N/N=C/c1ccc(Cl)cc1Cl,,PBMC,,95.4 µM
CC(C)(C)OC(=O)N1[C@H](CO)CC(F)(F)[C@H]1n1cnc2c(Cl)ncnc21,LAI,PBMC,,>100 µM

Blank or dashed fields: not listed here. Conditions beyond the fields shown may differ between rows.